Biological target: human M3 receptor (Homo sapiens, UniProt P20309)
Test: Muscarinic Receptor Radioligand Binding Assay ([3H]4-DAMP)
Conditions: 0.2 nM [3H]4-DAMP; for IC50 / M3 (antagonist) % Inhibition of Control Specific Binding: human M3 receptor-expressing cell homogenates; for Ki: calculated using the Cheng-Prusoff equation, human M3; for M3 (antagonist) % Inhibition of Control Specific Binding: test conc. 10 nM, 120 min, 22° C.

Amino acid sequences for entries named in this document (tags omitted).
UniProt P20309, whole entry, looked up: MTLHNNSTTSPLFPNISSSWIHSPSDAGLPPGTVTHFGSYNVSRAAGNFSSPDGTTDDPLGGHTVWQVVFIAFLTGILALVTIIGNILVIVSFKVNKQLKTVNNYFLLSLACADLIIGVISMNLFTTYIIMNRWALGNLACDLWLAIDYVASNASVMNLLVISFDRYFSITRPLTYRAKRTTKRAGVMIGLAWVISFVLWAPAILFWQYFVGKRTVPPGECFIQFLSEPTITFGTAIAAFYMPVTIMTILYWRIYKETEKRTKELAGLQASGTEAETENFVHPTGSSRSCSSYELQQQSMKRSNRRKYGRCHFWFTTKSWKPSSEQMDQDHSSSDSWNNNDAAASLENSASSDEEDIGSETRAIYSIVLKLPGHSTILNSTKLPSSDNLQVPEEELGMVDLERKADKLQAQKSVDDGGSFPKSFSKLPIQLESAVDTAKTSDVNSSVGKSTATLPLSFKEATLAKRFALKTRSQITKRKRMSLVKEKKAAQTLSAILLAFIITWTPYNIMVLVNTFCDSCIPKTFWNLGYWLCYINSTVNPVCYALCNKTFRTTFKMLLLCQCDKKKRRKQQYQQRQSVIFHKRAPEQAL

Row | Compound | IC50 [nM] | Ki [nM] | M3 (antagonist) % Inhibition of Control Specific Binding [%]
1 | C[N+]1(C)C2CC[C@H]1[C@@H](OC(=O)[C@@](O)(c1ccccc1)C1CCCC1)C2 | 36 | 26 | 
2 | C[N+]1(C)C2CC[C@H]1[C@H](OC(=O)[C@](O)(c1ccccc1)C1CCCC1)C2.[Br-] |  |  | 100
3 | C[N+]1(C)C2CC[C@H]1[C@H](OC(=O)[C@@](O)(c1ccccc1)C1CCCC1)C2 | 19 | 14 | 
4 | C[N+]1(C)C2CC[C@H]1[C@@H](OC(=O)[C@@](O)(c1ccccc1)C1CCCC1)C2.[Br-] |  |  | 9
5 | C[N+]1(C)C2CC[C@@H]1[C@H](OC(=O)[C@](O)(c1ccccc1)C1CCCC1)C2 | 0.25 | 0.18 | 
6 | C[N+]1(C)C2CC[C@H]1[C@@H](OC(=O)[C@](O)(c1ccccc1)C1CCCC1)C2.[Br-] |  |  | 100
7 | C[N+]1(C)C2CC[C@H]1[C@H](OC(=O)[C@](O)(c1ccccc1)C1CCCC1)C2 | 0.23 | 0.16 | 
8 | C[N+]1(C)C2CC[C@H]1[C@@H](OC(=O)[C@](O)(c1ccccc1)C1CCCC1)C2 | 0.3 | 0.22 | 
9 | C[N+]1(C)C2CC[C@H]1[C@H](OC(=O)[C@@](O)(c1ccccc1)C1CCCC1)C2.[Br-] |  |  | 30
10 | C[N+]1(C)C2CC[C@@H]1[C@H](OC(=O)[C@@](O)(c1ccccc1)C1CCCC1)C2 | 2.9 | 2.1 | 
11 | C[N+]1(C)C2CC[C@@H]1[C@@H](OC(=O)[C@](O)(c1ccccc1)C1CCCC1)C2.[Br-] |  |  | 98
12 | C[N+]1(C)C2CC[C@@H]1[C@@H](OC(=O)[C@@](O)(c1ccccc1)C1CCCC1)C2 | 2.1 | 1.5 | 
13 | C[N+]1(C)C2CC[C@@H]1[C@H](OC(=O)[C@@](O)(c1ccccc1)C1CCCC1)C2.[Br-] |  |  | 75
14 | C[N+]1(C)C2CC[C@@H]1[C@H](OC(=O)[C@](O)(c1ccccc1)C1CCCC1)C2.[Br-] |  |  | 99
15 | C[N+]1(C)C2CC[C@@H]1[C@@H](OC(=O)[C@](O)(c1ccccc1)C1CCCC1)C2 | 0.25 | 0.18 | 
16 | C[N+]1(C)C2CC[C@@H]1[C@@H](OC(=O)[C@@](O)(c1ccccc1)C1CCCC1)C2.[Br-] |  |  | 80

Source: patent US9320731B2, “7-azoniabicyclo[2.2.1]heptane derivatives, methods of production, and pharmaceutical uses thereof” (dated 2016)
